Anti-infective test results gathered from many reports (values: NIAID ChemDB through PubChem).

MIC50, MIC90 and the like: level of inhibition, or share of isolates inhibited.

smiles,method,agent,test,strain or isolate,protein,read-out,dose,cells,value
O=C(Nc1nnc(NCC(c2ccccc2)c2ccccc2)s1)c1ccc2c(c1)C(=O)OC2=O,-,Human cytomegalovirus,target,-,Polymerase,IC50,-,-,<25 µM
O=S(=O)([O-])c1ccc2c(O)cc(S(=O)(=O)[O-])cc2c1,cytopathic effect,Rhinovirus,culture,-,-,inhibition,50 µg/mL,Human amnion AV3 cells,20%
CC(=O)CC1CCC(=O)CCC(=O)OC(CC(C)=O)CCC(=O)CCC(=O)O1,BACTEC,Mycobacterium tuberculosis,culture,H37Rv,-,inhibition,12.5 µg/mL,-,10%
O=C(/C=C/c1ccccc1)Nc1nnc(NCCc2cccs2)s1,-,Human cytomegalovirus,target,-,Polymerase,IC50,-,-,<25 µM
Cl.NCC(=O)Nc1ccccc1,-,Mycobacterium tuberculosis,culture,H37Rv,-,MIC,-,-,>100 µg/mL
CCOc1ccc2ccccc2c1C(=O)Nc1nnc(NCCCn2ccnc2)s1,-,Human cytomegalovirus,target,-,Polymerase,IC50,-,-,>25 µM
CC(=O)NC1c2ccccc2-c2ccc(C(=O)O)cc21,-,Mycobacterium tuberculosis,culture,H37Rv,-,MIC,-,-,>100 µg/mL
O=C(Nc1nnc(NCCc2c[nH]c3ccccc23)s1)c1ccc(I)cc1,-,Human cytomegalovirus,target,-,Polymerase,IC50,-,-,>25 µM
CC1=NN(C(=O)c2ccncc2)C(=O)C1N=Nc1ccccc1C,BACTEC,Mycobacterium tuberculosis,culture,H37Rv,-,MIC,-,-,≥12.8 µg/mL
Nc1c[nH]c(=O)[nH]c1=O,-,Mycobacterium tuberculosis,culture,H37Rv,-,MIC,-,-,>100 µg/mL
COc1ccc(/C=C/C(=O)c2ccc(OC)cc2O)cc1,-,Mycobacterium tuberculosis,culture,H37Rv,-,inhibition,12.5 µg/mL,-,32%
CCOC(=O)NCCNC(=O)OCC,-,Mycobacterium tuberculosis,culture,H37Rv,-,MIC,-,-,>100 µg/mL
COc1ccc(N2CCN(c3cnccn3)C(c3cc4ccccc4o3)C2)cc1,-,Cytomegalovirus,target,-,UL97 kinase,inhibition,1 µM,-,<50%
O=C(Nc1ccc2cc(S(=O)(=O)[O-])cc(S(=O)(=O)[O-])c2c1)c1ccccc1,cytopathic effect,Adenovirus,culture,TYPE 3,-,inhibition,10 µg/mL,Human amnion AV3 cells,0%
C[C@@H]1CC[C@@]2(OC1)O[C@H]1C[C@H]3[C@@H]4CC=C5C[C@@H](O)CC[C@]5(C)[C@H]4CC[C@]3(C)[C@H]1[C@@H]2C,BACTEC,Mycobacterium tuberculosis,culture,H37Rv,-,MIC,-,-,≥128 µg/mL
C#CC[C@@H](C(=O)N[C@H](/C=C/C(=O)OCC)C[C@@H]1CCNC1=O)n1cccc(NC(=O)c2cc(C)on2)c1=O,cytopathic effect / XTT,Rhinovirus,culture,Serotype 11,-,inhibition,0.112 µM,H1-HELA,90%
O=C(c1ccc(Br)cc1)c1cnc2nc(-c3ccccc3)c(-c3ccccc3)nn12,-,Mycobacterium tuberculosis,culture,H37Rv,-,MIC,-,VERO,12.5 µg/mL
O=C(/C=C/c1ccncc1)c1ccco1,-,Mycobacterium tuberculosis,culture,H37Rv,-,EC50,-,-,>12.5 µg/mL
O=S(=O)(O)CO,cytopathic effect,Rhinovirus,culture,-,-,inhibition,10 µg/mL,Human embryonic lung cells,0%
Cc1ccc(C(=O)c2ccccc2C(=O)O)c(O)c1,-,Mycobacterium tuberculosis,culture,H37Rv,-,MIC,-,-,25 µg/mL
COc1c2occc2c(OC)c2c(=O)cc(/C=C/c3ccc4ccccc4n3)oc12,BACTEC,Mycobacterium tuberculosis,culture,H37Rv,-,inhibition,12.5 µg/mL,-,-19%
CC(C)c1cc(C(C)C)c(C(=O)Nc2nnc(NCCC#N)s2)c(C(C)C)c1,-,Human cytomegalovirus,target,-,Polymerase,IC50,-,-,>25 µM
COc1ccc2oc(-c3cc4cc(OC)ccc4o3)cc2c1,BACTEC,Mycobacterium tuberculosis,culture,H37Rv,-,inhibition,12.5 µg/mL,-,-2%
O=[N+]([O-])c1cccc2ncccc12,-,Mycobacterium tuberculosis,culture,H37Rv,-,MIC,-,-,>100 µg/mL
COC(=O)C1=C(C(=O)OC)C2(C)OC1C(=O)C21CC1,BACTEC,Mycobacterium tuberculosis,culture,H37Rv,-,inhibition,12.5 µg/mL,-,65%
Nc1ncccc1/C=C/C(=O)c1ccc2c(c1)-c1ccccc1C2,-,Mycobacterium tuberculosis,culture,-,-,EC50,-,-,<12.5 µg/mL
FC(F)(F)c1cccc(N2CCN(c3cncc(-c4csc5ccccc45)n3)CC2)c1,-,Cytomegalovirus,target,-,UL97 kinase,inhibition,10 µM,-,>15%
O=S(=O)([O-])c1cc(S(=O)(=O)[O-])c2cc(NS(=O)(=O)c3ccccc3)ccc2c1,cytopathic effect,Herpes simplex virus,culture,-,-,inhibition,10 µg/mL,Human amnion AV3 cells,0%
Fc1ccc(N2CCCCC2)c(NC(=S)c2ccncc2)c1,kinase activity,-,host protein,-,CHK2,inhibition,10 µM,-,6%
Nc1ccc(/C=C/c2ccc(N)c(S(=O)(=O)O)c2)cc1S(=O)(=O)O,-,Mycobacterium tuberculosis,culture,H37Rv,-,MIC,-,-,>100 µg/mL
O=c1ccc2cc(O[C@@H]3O[C@H](CO)[C@@H](O)[C@H](O)[C@H]3O)c(O)cc2o1,BACTEC,Mycobacterium tuberculosis,culture,H37Rv,-,MIC,-,-,≥128 µg/mL
S=c1sc([S-])nn1-c1ccccc1.[K+],-,Mycobacterium tuberculosis,culture,H37Rv,-,MIC,-,-,>100 µg/mL
CCOc1ccc(-c2cncc(N3CCN(c4ccccc4F)CC3)n2)cc1,-,Cytomegalovirus,target,-,UL97 kinase,IC50,-,-,<100 µM
Cl.N=C(N)SCc1ccccc1,-,Mycobacterium tuberculosis,culture,H37Rv,-,MIC,-,-,>100 µg/mL
CCCNC(=O)Nc1c([N+](=O)[O-])cc(C(F)(F)F)cc1[N+](=O)[O-],BACTEC,Mycobacterium tuberculosis,culture,H37Rv,-,MIC bound,-,-,>12.5 µg/mL
c1ccc(Nc2ccccn2)cc1,-,Mycobacterium tuberculosis,culture,H37Rv,-,MIC,-,-,>100 µg/mL
O=C(/C=C/c1ccccn1)c1ccccn1,-,Mycobacterium tuberculosis,culture,-,-,EC50,-,-,>12.5 µg/mL
Clc1ccc(Oc2ccc(Cl)cc2)cc1,-,Mycobacterium tuberculosis,culture,H37Rv,-,MIC,-,-,>100 µg/mL
CC(C)=NNC(=O)Nc1ccc(C)c(Cl)c1,BACTEC,Mycobacterium tuberculosis,culture,H37Rv,-,inhibition,12.5 µg/mL,-,91%
COc1ccc(NC(=O)c2cc([N+](=O)[O-])ccc2OC)cc1NC(=O)CC(=O)c1ccccc1OC,-,Mycobacterium tuberculosis,culture,H37Rv,-,MIC,-,-,>100 µg/mL
Cc1nc(Cl)nc2c1C(=O)Nc1ccccc1N2,BACTEC,Mycobacterium tuberculosis,culture,H37Rv,-,MIC bound,-,-,>12.5 µg/mL
COc1ccc2ncccc2c1N,-,Mycobacterium tuberculosis,culture,H37Rv,-,MIC,-,-,>100 µg/mL
COc1ccc(C2CC(=O)c3ccc(I)cc3O2)cc1,-,Mycobacterium tuberculosis,culture,H37Rv,-,EC50,-,-,>12.5 µg/mL
O=c1[nH]nc(Cc2ccccc2)n1/N=C/c1c(O)ccc2ccccc12,BACTEC,Mycobacterium tuberculosis,culture,H37Rv,-,MIC bound,-,-,>12.5 µg/mL
O=[N+]([O-])c1cccc(NC(=S)Nc2ccccc2)c1,-,Mycobacterium tuberculosis,culture,H37Rv,-,MIC,-,-,>100 µg/mL
COc1ccc(C2CC(=O)c3c(OC)cc(OC)c(I)c3O2)cc1,-,Mycobacterium tuberculosis,culture,H37Rv,-,inhibition,12.5 µg/mL,-,0%
O=C1c2ccccc2C(=O)c2c(NCCCNCCO)ccc(NCCCNCCO)c21,BACTEC,Mycobacterium tuberculosis,culture,H37Rv,-,MIC bound,-,-,>12.5 µg/mL
CCOc1ccc(N2CCOC2=O)cc1,-,Mycobacterium tuberculosis,culture,H37Rv,-,MIC,-,-,50 µg/mL
O=C(O)c1ccc2c(c1)C(=O)CC(c1ccccc1)O2,-,Mycobacterium tuberculosis,culture,-,-,EC50,-,-,>12.5 µg/mL
Oc1ccc(O)c(Cc2ccccc2)c1,-,Mycobacterium tuberculosis,culture,H37Rv,-,MIC,-,-,25 µg/mL
O=C1C=C([C@@H]2O[C@H](CO)[C@@H](O)[C@H]2O)C(=O)N1,BACTEC,Mycobacterium tuberculosis,culture,H37Rv,-,MIC bound,-,-,>12.8 µg/mL
O=C(Nc1ccc(S(=O)(=O)[O-])c2cccc(S(=O)(=O)[O-])c12)c1ccccc1,cytopathic effect,Herpes simplex virus,culture,-,-,inhibition,10 µg/mL,Human amnion AV3 cells,0%
COc1cc(C[C@H](C)[C@H](C)Cc2ccc(O)c(O)c2)ccc1O,broth dilution,Candida albicans,culture,CCC 126-2000,-,MIC80,-,-,31.25 µg/mL
Cc1cc(S(=O)(=O)Nc2nnc3cnc4ccccc4n23)c(S)cc1Cl,BACTEC,Mycobacterium tuberculosis,culture,H37Rv,-,MIC bound,-,-,>12.5 µg/mL
O=S(=O)([O-])c1cc(NS(=O)(=O)c2ccccc2)c2c(S(=O)(=O)[O-])cc(S(=O)(=O)[O-])cc2c1,cytopathic effect,Herpes simplex virus,culture,-,-,inhibition,5 µg/mL,Human amnion AV3 cells,25%
Nc1nc(N)c2c(n1)CN(Cc1ccc(Cl)cc1)C2,BACTEC,Mycobacterium tuberculosis,culture,H37Rv,-,inhibition,12.5 µg/mL,-,38%
CC1CC=C(C(=O)O)CC1,-,Mycobacterium tuberculosis,culture,H37Rv,-,MIC,-,-,100 µg/mL
Brc1ccc(Nc2nnc3nc(-c4ccccc4)c(-c4ccccc4)nn23)cc1,BACTEC,Mycobacterium tuberculosis,culture,H37Rv,-,inhibition,12.5 µg/mL,-,98%
CC(C)c1cc(C(C)C)c(C(=O)Nc2nnc(NCCCCc3ccccc3)s2)c(C(C)C)c1,-,Human cytomegalovirus,target,-,Polymerase,IC50,-,-,>25 µM
COC(=O)C1C(O)C(C)C(O)C(C)(O)/C=C\C=C(/C)C(=O)Nc2c(C)c(OC(C)=O)c3c(c2O)C(=O)C(C)=C2OCOC(=C23)/C(C)=C/C(C)(O)C(O)C(C)C1O,BACTEC,Mycobacterium tuberculosis,culture,H37Rv,-,inhibition,12.8 µg/mL,-,95%
Cc1ccc(N2CCN(c3cncc(-c4ccc(N(C)C)cc4)n3)CC2)cc1,-,Cytomegalovirus,target,-,UL97 kinase,IC50,-,-,<100 µM
Cc1ccc(N=Cc2ccccc2)c(O)c1,-,Mycobacterium tuberculosis,culture,H37Rv,-,MIC,-,-,>100 µg/mL
COc1cccc2c1C(=O)c1c(O)c3c(c(O)c1C2=O)C[C@@](O)(c1csc(N)n1)C[C@@H]3OC1CC(N)C(O)C(C)O1.Cl.Cl,BACTEC,Mycobacterium tuberculosis,culture,H37Rv,-,inhibition,12.5 µg/mL,-,48%
CCO/N=C/c1ccc(OCCC2CCN(c3ccc(C)nn3)CC2)cc1,neutral red,Rhinovirus,culture,6258-CV44 (ICAM-1 receptor group 64),-,EC50,-,KB,>4.588 µM
CC(=O)SCC(=O)Nc1nc2ccccc2s1,-,Mycobacterium tuberculosis,culture,H37Rv,-,MIC,-,-,>100 µg/mL
Cc1cc2c(cc1C)[n+](=O)cc(C(=O)C/C(=N\NC(=S)NN)C(=O)Nc1cccc(C(F)(F)F)c1)n2[O-],BACTEC,Mycobacterium tuberculosis,culture,H37Rv,-,MIC bound,-,-,>12.5 µg/mL
COc1ccc(N2CCN(c3cncc(-c4cccs4)n3)CC2)cc1OC,-,Cytomegalovirus,target,-,UL97 kinase,inhibition,1 µM,-,<50%
COc1cc2c3cc1COc1c(OC)c(OC)cc4c1C(Cc1ccc(OC)c(c1)Oc1ccc(cc1)C3N(C)CC2)N(C)CC4,-,Mycobacterium tuberculosis,culture,H37Rv,-,MIC,-,-,>100 µg/mL

The last 3 rows once more:

smiles,method,agent,test,strain or isolate,protein,read-out,dose,cells,value
Cc1cc2c(cc1C)[n+](=O)cc(C(=O)C/C(=N\NC(=S)NN)C(=O)Nc1cccc(C(F)(F)F)c1)n2[O-],BACTEC,Mycobacterium tuberculosis,culture,H37Rv,-,MIC bound,-,-,>12.5 µg/mL
COc1ccc(N2CCN(c3cncc(-c4cccs4)n3)CC2)cc1OC,-,Cytomegalovirus,target,-,UL97 kinase,inhibition,1 µM,-,<50%
COc1cc2c3cc1COc1c(OC)c(OC)cc4c1C(Cc1ccc(OC)c(c1)Oc1ccc(cc1)C3N(C)CC2)N(C)CC4,-,Mycobacterium tuberculosis,culture,H37Rv,-,MIC,-,-,>100 µg/mL

ECn: concentration that inhibits the pathogen or its effect by n%. Blank or dashed fields: not listed here. Percent inhibition refers to the dose given; in toxicity tests it is the harm to the cells. MIC bound: limit read from a one-dose screen. ICn is the concentration giving n% inhibition. Rows are shuffled and stem from different studies.